Compound potency records, mixed from different reports. Data source: NIAID ChemDB in PubChem.

All rows: tests in culture; agent: Staphylococcus aureus

Rows are shuffled and stem from different studies.

SMILES	strain	read-out	result
Cc1cn(-c2ccc(N3C[C@H](CNc4ccon4)OC3=O)cc2F)cn1	078 (oxford)	MIC	0.13 µg/mL
Cc1c(NCCO)c(F)cc2c(=O)c(C(=O)O)cn(-c3cc(N)c(F)cc3F)c12	27 isolates	MIC50	0.015 µg/mL
Cn1cc(C(=O)O)c(=O)c2cc3cc(F)c(N4CCN(Cc5ccc(F)cc5)CC4)cc3nc21	IP8203 (quinolone-sensitive)	MIC	0.5 µg/mL
CC[C@H]1OC(=O)[C@@](C)(F)C(=O)[C@H](C)[C@@H](O[C@@H]2O[C@H](C)C[C@H](N(C)C)[C@H]2O)[C@@]2(C)C[C@@H](C)C(=NC(C)=O)[C@H](C)[C@@H](OC/C(=N\OCC#Cc3cccc(N)n3)CO2)[C@]1(C)O	33591 (erythromycin methicillin-resistant)	MIC	>64 µg/mL
O=C(CO)N[C@H]1CCN(c2ccc(N3C[C@H](CNc4ccon4)OC3=O)cc2F)C1	122 (novobiocin-resistant)	MIC	2 µg/mL
CNc1c(F)cc2c(=O)c(C(=O)O)cn(-c3cc(N)c(F)cc3F)c2c1C	W200 (methicillin-resistant)	MIC	0.015 µg/mL
CC[C@H]1OC(=O)[C@@](C)(F)C(=O)[C@H](C)[C@@H](O[C@@H]2O[C@H](C)C[C@H](N(C)C)[C@H]2O)[C@@]2(C)C[C@@H](C)C(=NC(C)=O)[C@H](C)[C@@H](OC/C(=N\OCc3ccc(-c4nccs4)nc3)CO2)[C@]1(C)O	27660 (erythromycin A -resistant)	MIC	0.25 µg/mL
CNC1CCN(c2cc3c(cc2F)c(=O)c(C(=O)O)cn3C2CC2)CC1	ATCC 6538P	MIC	1.56 µg/mL
CC[C@H]1OC(=O)[C@@](C)(F)C(=O)[C@H](C)[C@@H](O[C@@H]2O[C@H](C)C[C@H](N(C)C)[C@H]2O)[C@@]2(C)C[C@@H](C)C(=NC(C)=O)[C@H](C)[C@@H](OC/C(=N/OCc3ccc(-c4cccc(N)n4)s3)CO2)[C@]1(C)O	29213 (erythromycin A-susceptible)	MIC	0.25 µg/mL
NCCCCCCCCCCNc1cc2c(cc1F)c(=O)c(C(=O)O)cn2C1CC1	ATCC 5278 (methicillin-resistant)	MIC	>100 µg/mL
CC[C@H]1OC(=O)[C@H](C)C(=O)[C@H](C)[C@@H](O[C@@H]2O[C@H](C)C[C@H](N(C)C)[C@H]2O)[C@@]2(C)C[C@@H](C)C(=NC(C)=O)[C@H](C)[C@@H](OC/C(=N\Oc3ccc(-c4nnc(N)s4)cc3)CO2)[C@]1(C)O	27660 (erythromycin-resistant)	MIC	0.13 µg/mL
CSCc1cccc(N2CCN(c3cc4nc5c(cc4cc3F)c(=O)c(C(=O)O)cn5C)CC2)c1	IP8203 (quinolone-sensitive)	MIC	4 µg/mL
CC[C@H]1OC(=O)[C@H](C)C(=O)[C@H](C)[C@@H](O[C@@H]2O[C@H](C)C[C@H](N(C)C)[C@H]2O)[C@@]2(C)C[C@@H](C)C(=NC(C)=O)[C@H](C)[C@@H](OC/C(=N\Oc3ccccc3)CO2)[C@]1(C)O	25923 (erythromycin-susceptible)	MIC	0.5 µg/mL
COc1ccccc1CNc1cc2c(cc1F)c(=O)c(C(=O)O)cn2C1CC1	ATCC 5278 (methicillin-resistant)	MIC	3.12 µg/mL
CC[C@H]1OC(=O)[C@H](C)C(=O)[C@H](C)[C@@H](O[C@@H]2O[C@H](C)C[C@H](N(C)C)[C@H]2O)[C@@]2(C)C[C@@H](C)C(=NC(C)=O)[C@H](C)[C@@H](OC/C(=N\OCC#Cc3ccc(N)nc3)CO2)[C@]1(C)O	27660 (erythromycin-resistant)	MIC	0.13 µg/mL
Cc1c(NCCCO)c(F)cc2c(=O)c(C(=O)O)cn(-c3cc(N)c(F)cc3F)c12	MR8736 (methicillin-resistant)	MIC	8 µg/mL
CC[C@H]1OC(=O)[C@H](C)C(=O)[C@H](C)[C@@H](O[C@@H]2O[C@H](C)C[C@H](N(C)C)[C@H]2O)[C@@]2(C)C[C@@H](C)C(=NC(C)=O)[C@H](C)[C@@H](OC/C(=N\Oc3ccc(-c4cnccn4)s3)CO2)[C@]1(C)O	33591 (erythromycin methicillin-resistant)	MIC	>64 µg/mL
O=C(O)c1cn(C2CC2)c2cc(N3CCOCC3)c(F)cc2c1=O	ATCC 5278 (methicillin-resistant)	MIC	0.78 µg/mL
CC[C@H]1OC(=O)[C@@](C)(F)C(=O)[C@H](C)[C@@H](O[C@@H]2O[C@H](C)C[C@H](N(C)C)[C@H]2O)[C@@]2(C)C[C@@H](C)C(=NC(C)=O)[C@H](C)[C@@H](OC/C(=N\OCc3ccc(-c4cccc(N)n4)s3)CO2)[C@]1(C)O	27660 (erythromycin A -resistant)	MIC	0.13 µg/mL
CS(=O)(=O)NC1CCN(c2ccc(N3C[C@H](COc4ccon4)OC3=O)cc2F)CC1	078 (oxford)	MIC	8 µg/mL
NC(=O)CNc1cc2c(cc1F)c(=O)c(C(=O)O)cn2C1CC1	ATCC 6538P	MIC	>100 µg/mL
CC[C@H]1OC(=O)[C@H](C)C(=O)[C@H](C)[C@@H](O[C@@H]2O[C@H](C)C[C@H](N(C)C)[C@H]2O)[C@@]2(C)C[C@@H](C)C(=NC(C)=O)[C@H](C)[C@@H](OC/C(=N\OCc3ccc(-c4cccc(N)n4)s3)CO2)[C@]1(C)O	29213 (erythromycin A-susceptible)	MIC	0.25 µg/mL
CC(CO)Nc1cc2c(cc1F)c(=O)c(C(=O)O)cn2C1CC1	ATCC 5278 (methicillin-resistant)	MIC	12.5 µg/mL
CC[C@H]1OC(=O)[C@H](C)C(=O)[C@H](C)[C@@H](O[C@@H]2O[C@H](C)C[C@H](N(C)C)[C@H]2O)[C@@]2(C)C[C@@H](C)C(=NC(C)=O)[C@H](C)[C@@H](OC/C(=N\OCc3ccc(C(N)=O)s3)CO2)[C@]1(C)O	29213 (erythromycin A-susceptible)	MIC	0.25 µg/mL
CS(=O)(=O)N1CCN(c2ccc(N3C[C@H](COc4ccon4)OC3=O)cc2F)CC1	122 (novobiocin-resistant)	MIC	4 µg/mL
CC1CN(c2cc3c(cc2F)c(=O)c(C(=O)O)cn3C2CC2)CC(C)N1	ATCC 5278 (methicillin-resistant)	MIC	1.56 µg/mL
CC[C@H]1OC(=O)[C@@](C)(F)C(=O)[C@H](C)[C@@H](O[C@@H]2O[C@H](C)C[C@H](N(C)C)[C@H]2O)[C@@]2(C)C[C@@H](C)C(=NC(C)=O)[C@H](C)[C@@H](OC/C(=N\OCc3ccc(-c4csnn4)nc3)CO2)[C@]1(C)O	29213 (erythromycin A-susceptible)	MIC	0.25 µg/mL

For reference, 3 entries again:

CNc1c(F)cc2c(=O)c(C(=O)O)cn(-c3cc(N)c(F)cc3F)c2c1C ; strain: W200 (methicillin-resistant) ; read-out: MIC ; result: 0.015 µg/mL
Cn1cc(C(=O)O)c(=O)c2cc3cc(F)c(N4CCN(Cc5ccc(F)cc5)CC4)cc3nc21 ; strain: IP8203 (quinolone-sensitive) ; read-out: MIC ; result: 0.5 µg/mL
Cc1cn(-c2ccc(N3C[C@H](CNc4ccon4)OC3=O)cc2F)cn1 ; strain: 078 (oxford) ; read-out: MIC ; result: 0.13 µg/mL

MIC50, MIC90 and the like: level of inhibition, or share of isolates inhibited.